Measurements reported in PubChem BioAssay AID1224833 (University of Georgia, 2016)
The whole screen tested about 12,000 reagents; this is an unselected part. Of all reagents, about 5,600 (46%) were called active. 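Active calls cover z-scores past 1 in both directions, so they include lowered as well as raised rotavirus replication.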

Test: 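Human genes whose knock-down alters rotavirus replication in monkey cells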 (primary screen)
Cells: monkey MA104 kidney cells
Reagents: siRNA pool against human genes, 50 nM
Time to read-out: 48 h knock-down before infection; read 24 h after infection
Conditions: infection with rotavirus strain RV3 two days after transfection; infectious dose for this stage not given
Detection: 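z-score of rotavirus antigen signal per well, from a fluorescent immunoassay, relative to non-targeting control wells on the same plate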
Reading the numbers: z-score vs non-targeting control: higher = more rotavirus replication than with non-targeting control
Hit rule: In these data the active calls have z-score vs non-targeting control at about -1 or lower, or at about 1 or higher
Calls: active = z-score beyond 1 either way; inactive = z-score within 1 of zero

{"gene":"GKAP1","z-score vs non-targeting control":-1.22,"call":"active"}
{"gene":"ANKRD13B","z-score vs non-targeting control":-1.37,"call":"active"}
{"gene":"RAET1G","z-score vs non-targeting control":-0.419,"call":"inactive"}
{"gene":"TGFB2","z-score vs non-targeting control":1.01,"call":"active"}
{"gene":"H3C1","z-score vs non-targeting control":0.819,"call":"inactive"}
{"gene":"RASIP1","z-score vs non-targeting control":-0.055,"call":"inactive"}
{"gene":"SRARP","z-score vs non-targeting control":0.63,"call":"inactive"}
{"gene":"FAXC","z-score vs non-targeting control":0.655,"call":"inactive"}
{"gene":"MRPS17","z-score vs non-targeting control":-0.174,"call":"inactive"}
